Source: PubChem BioAssay AID624099 (ICCB-Longwood, 2012)

Assay: 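Knock-downs relieving repression by E2 of an HPV18 LCR luciferase reporter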 (primary screen)
Cell system: human C33A cervical carcinoma cells (HPV-negative) stably expressing BPV1 E2 and an HPV18 LCR luciferase reporter
Reagent: siRNA pool against human genes, 40 nM
Time to read-out: 72 h
Measured: 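HPV18 LCR reporter light per well, converted to plate-wise z-scores that exclude control wells, and averaged over triplicate plates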
Direction: mean z-score and z-score: higher = stronger reporter signal, weaker E2 silencing
Active means: 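Hit if mean z-score reaches 2 and two or more of three replicate z-scores also reach 2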
In all, the deposit lists about 21,000 reagents; below is an unselected part. Of all reagents, 497 (2.4%) were called active. 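Higher z means weaker E2 silencing; only reporter increases were scored, and knock-downs that hurt cell survival may mask genuine repressor factors.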 Entries without a mark were called inactive. Reagent sequences are not shown.

| Gene | mean z-score | z-score, replicate A | z-score, replicate B | z-score, replicate C |
| --- | --- | --- | --- | --- |
| MIOX (myo-inositol oxygenase) | -1.99 | -2.22 | -2.03 | -1.72 |
| PLN (phospholamban) | -0.23 | -0.25 | -0.23 | -0.2 |
| MRPL14 (mitochondrial ribosomal protein L14) | 0.06 | 0.27 | 0.12 | -0.2 |
| IGF2 (insulin like growth factor 2) | 0.23 | 0.12 | 0.32 | 0.24 |
| IL23A (interleukin 23 subunit alpha) | 0.8 | 1.31 | 0.42 | 0.68 |
| PALM3 (paralemmin 3) | 0.96 | 1.31 | 0.68 | 0.89 |
| DNAJB13 (DnaJ heat shock protein family (Hsp40) member B13) | -0.95 | -0.79 | -0.77 | -1.3 |
| ZNF410 (zinc finger protein 410) | -1.2 | -0.86 | -1.12 | -1.62 |
| KDM5B (lysine demethylase 5B) | -0.46 | -0.38 | -0.41 | -0.6 |
| ZG16 (zymogen granule protein 16) | 1.71 | 1.71 | 1.91 | 1.52 |
| HCFC1 (host cell factor C1) | -0.91 | -1.08 | -0.78 | -0.86 |
| PIGY (phosphatidylinositol glycan anchor biosynthesis class Y) | 1.06 | 1.16 | 0.9 | 1.12 |
| CCL4 (C-C motif chemokine ligand 4) | 0.2 | -0.21 | 0.29 | 0.5 |
| EEF1D (eukaryotic translation elongation factor 1 delta) | -1.53 | -1.38 | -1.43 | -1.78 |
| LINC02902 (long independently transcribed non-coding RNA 2902) | 0.59 | 0.67 | 0.67 | 0.42 |
| NCF1C (neutrophil cytosolic factor 1C (pseudogene)) | 0.69 | 0.77 | 0.47 | 0.82 |
| PCDHAC1 (protocadherin alpha subfamily C, 1) | 0.84 | 0.95 | 0.48 | 1.09 |
| BRF1 (BRF1 general transcription factor IIIB subunit) | -0.43 | -0.67 | -0.12 | -0.51 |
| PRPF38B (pre-mRNA processing factor 38B) | -0.94 | -1.27 | -1.26 | -0.3 |
| LOC402689 (retired record) | 0.9 | 1.27 | 0.61 | 0.81 |
| GPR32 (G protein-coupled receptor 32) | 0.9 | 0.81 | 0.87 | 1.04 |
| ACTL6A (actin like 6A) | -1.44 | -1.36 | -1.52 | -1.43 |
| SLC14A2-AS1 (SLC14A2 antisense RNA 1) | -0.74 | -0.81 | -0.6 | -0.81 |
| TAS1R3 (taste 1 receptor member 3) | 0.76 | 0.96 | 0.67 | 0.65 |
| TTC9C (tetratricopeptide repeat domain 9C) | 0.4 | 0.64 | 0.4 | 0.15 |
| DKK2 (dickkopf Wnt signaling pathway inhibitor 2) | -0.62 | -0.29 | -0.46 | -1.1 |
| LRFN2 | -1.8 | -1.9 | -1.87 | -1.65 |
| ESR1 (estrogen receptor 1) | 0.34 | 0.46 | 0.1 | 0.46 |
| ODAM (odontogenic, ameloblast associated) | 0.2 | 0.23 | 0.25 | 0.11 |
| RWDD4 (RWD domain containing 4) | -1.74 | -1.27 | -2.07 | -1.89 |
| NCOR1 (nuclear receptor corepressor 1) | -0.42 | -0.45 | -0.5 | -0.33 |
| LOC388924 (retired record) | 0.18 | 0.87 | 0.15 | -0.49 |
| SYT17 (synaptotagmin 17) | 0.47 | 0.71 | 0.5 | 0.21 |
| SPMAP1 (sperm microtubule associated protein 1) | -0.38 | -0.27 | -0.31 | -0.54 |
| KLF5 (KLF transcription factor 5) | -0.31 | -0.31 | -0.31 | -0.31 |
| CCL24 (C-C motif chemokine ligand 24) | 0.6 | 0.58 | 0.45 | 0.77 |
| OR6B3 (olfactory receptor family 6 subfamily B member 3) | 1.4 | 1.84 | 1.32 | 1.02 |
| HBM (hemoglobin subunit mu) | -0.2 | -0.16 | -0.34 | -0.1 |
| POLDIP3 (DNA polymerase delta interacting protein 3) | 0.13 | -0.02 | 0.38 | 0.03 |
| OR2M7 (olfactory receptor family 2 subfamily M member 7) | 0.99 | 1.61 | 0.58 | 0.78 |
| PPP6R3 (protein phosphatase 6 regulatory subunit 3) | -1.43 | -1.47 | -1.25 | -1.58 |
| CUBN (cubilin) | 0.7 | 0.77 | 0.66 | 0.68 |
| LRTOMT | -0.46 | -0.38 | -0.59 | -0.39 |
| RBPMS (RNA binding protein, mRNA processing factor) | -0.74 | -0.55 | -0.82 | -0.84 |
| MTCP1 (mature T cell proliferation 1) | -0.78 | -0.66 | -0.92 | -0.74 |
| CD300A (CD300a molecule) | -1.29 | -1.48 | -1.19 | -1.21 |
| HNRNPD (heterogeneous nuclear ribonucleoprotein D) | 2.55 (active) | 3.06 | 2.23 | 2.36 |
| SNORC | 1.31 | 1.52 | 1.41 | 1 |
| C1orf116 (chromosome 1 open reading frame 116) | 0.93 | 1.38 | 0.82 | 0.58 |
| ATP10B (ATPase phospholipid transporting 10B (putative)) | 0.99 | 1.45 | 0.85 | 0.67 |
| CNGB1 (cyclic nucleotide gated channel subunit beta 1) | -0.05 | -0.12 | -0.22 | 0.2 |
| PRECSIT | 1.48 | 1.34 | 1.87 | 1.22 |
| EXOC3-AS1 (EXOC3 antisense RNA 1) | 0.89 | 1.2 | 0.38 | 1.08 |
| SND1-IT1 (SND1 intronic transcript 1) | 1.07 | 1.02 | 1.35 | 0.85 |
| DNAI4 (dynein axonemal intermediate chain 4) | -1.34 | -1.42 | -1.3 | -1.3 |
| LATS1 (large tumor suppressor kinase 1) | 1.76 | 1.78 | 1.28 | 2.2 |
| MTF1 (metal regulatory transcription factor 1) | -1.43 | -1.15 | -1.39 | -1.74 |
